Measured values: patent US9266930

B1: […] (P. falciparum LSA, position 3, 10 amino acids; Seq. Id 296) (peptide)
peptide: HILYISFYFI
modifications: not checked
B2: […] (P. falciparum LSA, position 4, 10 amino acids; Seq. Id 309) (peptide)
peptide: ILYISFYFIL
modifications: not checked
B3: […] (P. falciparum LSA, position 1585, 9 amino acids; Seq. Id 324) (peptide)
peptide: KLQEQQSDL
modifications: not checked

target: HLA-A*0201 (Human)

First: B1
Second: B2
The binding affinity ratio (IC50 of standard peptide / IC50 of test peptide) of the first is lower: 0.0033 for the first, 0.0035 for the second.

Binder B3 has a binding affinity ratio (IC50 of standard peptide / IC50 of test peptide) of 0.0019.
